# Replication capacity of HIV-1 mutants, non-coding ends

Data from the supplement of Al-Mawsawi et al. 2014, doi:10.1186/s12977-014-0124-6.

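Random point mutant libraries of HIV-1 NL4-3, one for each of seven fragments, were passaged in CEM T lymphocytes. Sequencing gave the RC index: frequency after two rounds over frequency in the input plasmid.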

Positions lie in the non-coding 5' end or the 3' LTR of the genome. Changes in the 5' U3 are not copied into viral RNA and those in the 3' R are mostly lost on reverse transcription, so a low index there need not show harm (not discussed in the paper).

Values are the RC index; higher means better tolerated. The authors read about 0.1 or less as lethal, 0.1-0.2 as attenuated and 0.2 or more as tolerated.
Input reads are the counts in the plasmid library.
Since each clone held several changes (about five per kb), neutral changes can read low.
An index over 1, which the authors read as above wild type, was rare (1.9% of all changes in the genome).
Base changes are numbered along pNL4-3.

With C766T (region 5' U5/leader, input reads 417) the assay gave 0.0324. For G9438T (region 3' U3, input reads 146) the result was 0.590. With G748C (region 5' U5/leader, input reads 188) the assay gave 0.0822. C9589A (region 3' R, input reads 94) read 0.0708. T9578G (region 3' R, input reads 30) read 0.222. For G764A (region 5' U5/leader, input reads 252) the result was 0.583.

A513T (region 5' R, input reads 191) read 0.505. With T9444C (region 3' U3, input reads 275) the assay gave 0.559. T341C (region 5' U3, input reads 258) gave 0.570. A9442G (region 3' U3, input reads 436) read 0.581. For C9434T (region 3' U3, input reads 329) the result was 0.549. T9458C (region 3' U3, input reads 318) read 0.685.

With C359G (region 5' U3, input reads 90) the assay gave 0.136. With G9580T (region 3' R, input reads 199) the assay gave 0.569. G9486T (region 3' U3, input reads 75) read 1.60. For C416A (region 5' U3, input reads 168) the result was 0.292. A552G (region 5' U5/leader, input reads 88) gave 0.548. For C9514A (region 3' U3, input reads 74) the result was 0.180.

A346G (region 5' U3, input reads 241) read 0.153. For G384A (region 5' U3, input reads 246) the result was 0.150. G9460C (region 3' U3, input reads 62) gave 0.300. C9500A (region 3' U3, input reads 62) gave 0.966. For C150G (region 5' U3, input reads 170) the result was 0.0602. With T9432C (region 3' U3, input reads 292) the assay gave 0.492.

A403G (region 5' U3, input reads 391) gave 0.282. T9416G (region 3' U3, input reads 60) read 0.225. C502T (region 5' R, input reads 169) gave 0.286. G662A (region 5' U5/leader, input reads 39) read 0.211. G263A (region 5' U3, input reads 197) gave 0.0692. G9426A (region 3' U3, input reads 257) gave 0.309.

With A9550T (region 3' R, input reads 366) the assay gave 0.0727. With A788T (region 5' U5/leader, input reads 503) the assay gave 0.0346. For C9508T (region 3' U3, input reads 226) the result was 0.795. G9455T (region 3' U3, input reads 76) read 1.04. With G734A (region 5' U5/leader, input reads 335) the assay gave 0.104. For G162T (region 5' U3, input reads 291) the result was 0.0938.

With A500T (region 5' R, input reads 141) the assay gave 0.685. T9445A (region 3' U3, input reads 195) gave 0.546. With A788G (region 5' U5/leader, input reads 297) the assay gave 0.0716. For A228G (region 5' U3, input reads 186) the result was 0.110. A509G (region 5' R, input reads 110) gave 0.877. C9565A (region 3' R, input reads 103) gave 0.0431.

With C9547A (region 3' R, input reads 217) the assay gave 0.143. G311A (region 5' U3, input reads 275) gave 0.580. For C9537T (region 3' R, input reads 117) the result was 0.228. A175T (region 5' U3, input reads 154) gave 0.199. C539A (region 5' R, input reads 129) gave 0.374. T461A (region 5' R, input reads 131) read 0.737.

C514G (region 5' R, input reads 55) gave 0.877. C358T (region 5' U3, input reads 126) gave 0.195. For A152T (region 5' U3, input reads 470) the result was 0.0580.

The opening 4 entries, copied out:

base	region	input reads	replication capacity index
C766T	5' U5/leader	417	0.0324
G9438T	3' U3	146	0.590
G748C	5' U5/leader	188	0.0822
C9589A	3' R	94	0.0708